Results on four molecules are retold here after PMC4778845, “Three Recombinant Engineered Antibodies against Recombinant Tags with High Affinity and Specificity” (PLoS ONE, 2016).

Test [1] concerns the target PCDH15-THAP (mouse protocadherin-15 with tandem HAP inserted between EC domains 10 and 11) (mouse). As to the kind of experiment: immunostaining of cells or tissue.
For test [2] the target is unchanged. Kind of test: far-Western, overlay or dot blot.
In test [3] the target is PCDH15-HAP (mouse protocadherin-15 with a single HAP inserted between EC domains 10 and 11) (mouse). Kind of test: immunostaining of cells or tissue.
Test [4] concerns the target T1, anti-THAP (α-bungarotoxin fused to human Fc, homodimeric) (Bungarus multicinctus, UniProt P60615 22-95, biotin (EZ-Link Hydrazide-PEG4-Biotin), only in the single-molecule pull-down).
T1 construct: source: HEK293f, transiently transfected, secreted, purified (rProtein A HiTrap)
As to the kind of experiment: SPR. A general note: In SPR one partner is held on a chip, and binding of the other changes the refractive index at the surface.

The target in test [5] is T2, anti-THAP (alpha-bungarotoxin fused to human Fc, homodimer with two BTX arms) (Bungarus multicinctus, UniProt P60615 22-95).
T2 construct: source: HEK293f, transiently transfected, secreted, purified (rProtein A HiTrap)
Kind of test: SPR.

By Kd is commonly meant the constant that tells how readily two partners part at equilibrium. A high value points to lower affinity. With “biotinylated α-bungarotoxin (from UniProt P60615 22-95) (natural protein)”, the Kd in test [1] stood at 10 nM.

Molecule “anti-THAP (α-bungarotoxin fused to human Fc, homodimeric) (from UniProt P60615 22-95) (Fc fusion)” returned an immunoblot signal, fold of that of PCDH15-HAP in test [2] of 30 fold. Also, the Kd turned out to be 0.07 nM in test [1] and 0.4 nM in test [3].

B1: high affinity peptide (HAP) (peptide)
peptide: WRYYESSLEPYPD
B1 displayed a Kd in test [4] of approximately 2 nM.

B2: high affinity peptide (HAP) (peptide)
peptide: WRYYESSLEPYPD
As usually defined, the koff is a measure of how fast the partners let go of each other. Lower therefore signals a long-lived complex. For orientation: kon means a measure of how fast the partners come together. Low values mean slow association, high ones fast association. In test [5], B2 had a dissociation constant (Kd) of 1.9 nM, an off-rate constant (koff) of 0.00095 s⁻¹ and an association rate constant (kon) of 490000 M⁻¹ s⁻¹.
